{"source": "paper PMC6523946", "key": {"[1]": {"test_system": "P02766", "test": "Tricine SDS-PAGE at low SDS; huTTR with or without CAB, 7 M urea, 96 h at ~6 °C; 14% Tricine SDS-PAGE with 0.025% SDS in the running buffer and 0.2% SDS in the loading buffer; densitometry of folded huTTR (tetramers, trimers, dimers)", "settings": "other: Tricine SDS-PAGE at low SDS"}, "[2]": {"test_system": "P02766", "test": "cross-linking; huTTR 0.5 ug/uL with or without CAB, pH 4.0, 37 °C, 14 days; 2.5% glutaraldehyde for 4 min at room temperature; boiled in SDS and beta-mercaptoethanol; 10% Tricine SDS-PAGE; densitometry of the tetramer band"}}}
{"substance": "human transthyretin", "values": [{"measurement": "percent of folded huTTR (tetramers, trimers, dimers) after urea denaturation, with CAB", "setting": "[1]", "result": "89.65 ± 4.6", "unit": "%"}, {"measurement": "percent of folded huTTR (tetramers, trimers, dimers) after urea denaturation, without CAB", "setting": "[1]", "result": "58.87 ± 4.37", "unit": "%"}, {"measurement": "percent of tetramers that remained after acid denaturation, with CAB", "setting": "[2]", "result": "68.32 ± 0.81", "unit": "%"}, {"measurement": "percent of tetramers that remained after acid denaturation, without CAB", "setting": "[2]", "result": "30.24 ± 0.78", "unit": "%"}]}
